Tested on: ScGT1
Assay: Antiprion activity against scrapie prion protein-infected mouse ScGT1 cells assessed as accumulation of PrPSc at 1 uM after 5 days by Western blotting
Type: cell-based
Outline: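 ScGT1 cells in DMEM with 10% FBS were split 1:10 into Petri dishes and grown 2 days at 37 °C, 5% CO2. Non-toxic compound concentrations (10 nM–2 μM) were then added. After 5 days, cell proteins were extracted, quantified, proteinase K-digested and western-blotted. PK-resistant PrPSc was quantified by densitometry. EC50 is half-maximal inhibition. Values are mean of three experiments with SD.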

Compound `O=C1C=C(NCCCNc2c3c(nc4ccccc24)CCCC3)C(=O)C=C1NCCCNc1c2c(nc3ccccc13)CCCC2` has an inhibition of 3.6%.
